Data as given in PubChem BioAssay AID1259414 (Drosophila RNAi Screening Center, 2018).
The deposit covers about 24,000 reagents; shown is a random part of those that have a named target and a result. Of all reagents, about 1,210 (5%) are marked active. 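Inactive calls also include excluded dsRNAs with several or no targets, genes unexpressed in JW18, and well A1, regardless of score.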 The numbers tell different reagents against one gene apart. Names joined by + are all predicted targets of the reagent.

Test: 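Genome-wide screen for host control of endosymbiont load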 (primary screen)
System: Drosophila JW18 cells infected with Wolbachia
Reagent: long dsRNA against Drosophila genes, 0.25 µg dsRNA per well of a 384-well plate
Duration: 5 days
Treatment: cells persistently infected with Wolbachia before knock-down; no added drug
Measured: 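Imaged fluorescence in situ signal for Wolbachia 23S rRNA per DAPI-counted host cell, given as a robust z-score within each plate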
Direction: Wolbachia per cell robust z: higher = more Wolbachia per host cell than the plate typical
Rule for the call: 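Hit when robust z is 1.5 or more, or -1.5 or less, in at least two of three replicates; excludes dsRNAs with several or no targets, genes not expressed in JW18 and well A1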

no.	target	reagent	Wolbachia per cell robust z, rep 1	Wolbachia per cell robust z, rep 2	Wolbachia per cell robust z, rep 3	outcome
1	eIF2Bbeta	1	0.156	-6.25	-0.166	inactive
2	eIF2Bbeta	2	-0.0251	0.663	0.758	inactive
3	Gr33a	1	1	1.25	0.93	inactive
4	CG11898	1	-0.678	-3.13	-6.57	inactive
5	CG11898	2	1.27	1.31	0.0445	inactive
6	mTor	1	0.647	-1.32	1.83	inactive
7	mTor	2	0.478	1.85	1.04	inactive
8	nAChRbeta3	1	-2.13	-0.809	-0.417	inactive
9	CG15282	1	-0.613	0.834	0.00167	inactive
10	CG15282	2	-1.54	0.141	0.0793	inactive
11	mRpL47	1	1.18	-0.318	-0.764	inactive
12	CG11379	1	0.319	-0.389	-0.212	inactive
13	CG3638	1	-1.82	-1.25	-0.171	inactive
14	CG3638	2	0.418	0.7	3.23	inactive
15	AstA-R1	1	0.988	0.442	1.35	inactive
16	AstA-R1	2	0.0563	-0.0319	-0.0546	inactive
17	AstA-R1	3	0.268	0.682	0.723	inactive
18	Cisd2	1	-4.36	1.02	0.958	inactive
19	Crk	1	1.35	1.37	1.91	inactive
20	Met75Ca + Met75Cb	1	-0.514	-10.2	-0.685	inactive
21	Met75Ca + Met75Cb	2	0.729	0.713	0.422	inactive
22	Naa20A	1	0.03	-0.962	-0.749	inactive
23	scrib	1	-0.494	0.0456	0.721	inactive
24	scrib	2	-1.16	0.124	0.0546	inactive
25	scrib	3	0.65	-1.27	0.372	inactive
26	scrib	4	0.422	0.0604	0.641	inactive
27	scrib	5	0.396	2.66	0.235	inactive
28	scrib	6	-0.541	-0.996	-2.5	inactive
29	CG6254	1	-0.55	-0.695	-0.117	inactive
30	Or94a	1	-2.85	0.791	-2.88	inactive
31	CG31668	1	0.472	0.408	-0.0182	inactive
32	dpr20	1	-0.256	0.251	0.774	inactive
33	gb	1	0.505	-7.12	-0.62	inactive
34	gb	2	-1.49	-3.4	-1.69	active
35	spok	1	-6.1	-6.24	-0.0915	inactive
36	Ir7f	1	-0.428	0.623	0.435	inactive
37	RpS26	1	8.13	3.69	8.63	active
38	ato	1	-0.14	-1.06	-1.64	inactive
39	janB	1	-0.499	0.421	-0.672	inactive
40	jp	1	0.235	0.28	0.532	inactive
41	GstE3	1	-0.282	-0.55	-0.359	inactive
42	Desat2	1	-0.369	-1.43	-1.86	inactive
43	Desat2	2	-0.671	-1.26	-0.033	inactive
44	FarO	1	-0.533	0.104	-0.032	inactive
45	CG42747	1	-2.73	-0.288	-0.784	inactive
46	CG42747	2	-0.747	0.0987	-2.47	inactive
47	CG42747	3	-1.99	-0.276	1.15	inactive
